Measured values: patent US20230381142A1, “ANTILEISHMANIAL COMPOUNDS, COMPOSITIONS AND USE THEREOF” (TRUSTEES OF BOSTON UNIVERSITY, priority 2022, published 2023)

Tests used:
[1] = test system: L. donovani intracellular amastigotes in B10R cells; experiment: UCSD L. donovani infection assay (Assay Conditions D); format: cell-based; details: UCSD assay, CC50 versus L. donovani infection EC50
Method: (§1) Assay Conditions D: B10R cells (CVCL_0155) were seeded at 300 cells/well, and L. donovani WT promastigotes in stationary phase (7th day after passage) were added at 6,000 parasites/well (ratio of 20 parasites/cell). Both cells and parasites were seeded in DMEM High-Glucose medium (Gibco, cat. no. 11995065) containing 5% Fetal Bovine Serum (Sigma-Aldrich, cat. no. F2442) and 1% Penicillin-Streptomycin (Gibco, cat. no. 15140122). Cells and parasites were incubated in the presence of the compounds for 72 h at 37° C. and 5% C02. Plates were then fixed with 4% formaldehyde solution for at least 1 h, then washed with 1×PBS and stained with 5 μg/mL DAPI. Plates were read using an ImageXpress microscope (Molecular Devices) and analyzed by MetaXpress software (Molecular Devices) using a custom module optimized for this assay. […] Compounds were tested in a 10-point 2-fold serial dilution in 3 technical replicates, and 2 biological replicates. After 72 h, plates were fixed and stained with DAPI as described above. Images were acquired on an ImageXpress microscope, and analyzed using the MetaXpress custom module.
as §1, with “Compounds were obtained as 0.2 μmoles of dried film for primary single point screening. Each compound was diluted in DMSO to 10 μM final testing concentration. These compounds were tested in 2 biological replicates. The compounds were pre-spotted onto 384-well assay plates in single concentration.” for “Assay Conditions D:”, “CO2.” for “C02.”, “module. The DRCs were plotted, half-effective concentration (EC50) and half-cytotoxic concentration (CC50) were calculated using GraphPad Prism Software, version 6.05 (GraphPad Software, San Diego, CA).” for “module.”

[2] = test system: L. donovani intracellular amastigotes infecting THP-1 macrophages; experiment: GSK intramacrophage L. donovani assay (LD AMMAC, inMac; Assay Conditions C); format: cell-based, Leishmania donovani; details: (LD MAC EC50)/(LD AMMAC EC50)
Method in brief: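 L. donovani amastigotes within THP-1 macrophages; EC50 based on average intracellular amastigotes per infected cell (AMMAC). Infected-cell percentage (INFCELL) and host-cell number (MAC) also read, the latter as toxicity output.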

SMILES | SI [1] | SI MAC [2]
COc1ccc(N2C(=O)c3[nH]nc(CC(C)C)c3C2c2ccc(F)cc2)cc1 (racemic) [Compound 1, 4-(4-fluorophenyl)-3-isobutyl-5-(4-methoxyphenyl)-4,5-dihydropyrrolo[3,4-c]pyrazol-6(1H)-one] | >24.4 | 6.3
COc1ccc(N2C(=O)c3[nH]nc(CC(C)C)c3C2c2ccccc2OC)cn1 (stereo not shown) [Compound 85, 3-isobutyl-4-(2-methoxyphenyl)-5-(6-methoxypyridin-3-yl)-4,5-dihydropyrrolo[3,4-c]pyrazol-6(1H)-one] | >76.9 | –
Cc1cc(F)ccc1C1c2c(CC(C)C)n[nH]c2C(=O)N1c1ccc2ncnn2c1 (stereo not shown) [Compound 89, 5-([1,2,4]triazolo[1,5-a]pyridin-6-yl)-4-(4-fluoro-2-methylphenyl)-3-isobutyl-4,5-dihydropyrrolo[3,4-c]pyrazol-6(1H)-one] | >24.4 | –
